Source: US9156855B2, “Regulation of nitric oxide release and biofilm development” (Newsouth Innovation Pty Limited, priority 2011, dated 2015)

Test system: P. aeruginosa 18A biofilms
Conditions: 100 μM, 10 min, biofilms grown for 24 h

## CCN(CC)/[N+]([O-])=N/OCC1=C(C(=O)O)N2C(=O)C(NC(=O)Cc3ccccc3)C2SC1 (stereo not shown) [Compound 21]
  dispersal (CV staining): 35%
